We go through one substance from paper PMC3916700.

The target of the experiment is HIV-1 capsid (CA) A92E mutant (HIV-1).

Take “Cyclophilin A (from UniProt P62937 1-165) (enzyme)”: the infectivity (percent GFP+ cells 72 hrs after transduction), ratio of 5 μM CsA to DMSO, H9 cells was found to be 6 fold and the infectivity (percent GFP+ cells 72 hrs after transduction), ratio of 5 μM CsA to DMSO, HeLa cells was found to be 11 fold.
